Compound potency records, mixed from different reports. Data source: NIAID ChemDB in PubChem.

Shared fields: whole-cell or culture tests; species: HIV-1; endpoint: EC95

ECn is the concentration giving n% inhibition of infection, replication or growth. Lines come from different laboratories, so protocols vary.

CCc1cc(NCc2nc3c(C)ccc(C)c3o2)c(=O)[nH]c1C ; strain or isolate: IIIB ; cells: H9 ; method: p24 ; value: 0.2 µM
CC(C)(C)NC(=O)[C@@H]1CN(C(C)(C)c2cccnc2)CCN1C[C@@H](O)C[C@@H](Cc1ccccc1)C(=O)N[C@H]1c2ccccc2C[C@H]1O ; strain or isolate: NL4-3 ; cells: MT-4 ; value: 0.05 µM
O=C(CSc1nnnn1-c1cccc2ccccc12)Nc1ccccn1 ; cells: MT-4 ; method: p24 ; value: <10 µM
O=S(Cc1[nH]c2ccc(Cl)cc2c1Sc1ccccc1)c1ccccc1 ; strain or isolate: IIIB ; cells: MT-4 ; method: p24 / ELISA ; value: 0.8 µM
CCc1cc(NCc2nc3c(Cl)ccc(Cl)c3o2)c(=O)[nH]c1C ; strain or isolate: RUTZ ; cells: MT-4 ; method: p24 ; value: 0.1 µM
O=C1Nc2ccc(Cl)cc2C(C#Cc2ccccc2)(C2CC2)N1 ; strain or isolate: IIIB ; cells: MT-4 ; value: 0.1 µM
CC(C)=CCN1Cc2cc(Cl)cc3[nH]c(=S)n(c23)C[C@@H]1C ; strain or isolate: IIIB ; cells: MT-4 ; method: p24 / ELISA ; value: 0.4 µM
C[C@@H]1C[C@@H](c2nc(C(=O)NCc3ccc(F)cc3)c(O)c(=O)n2C)N(C)C1 ; strain or isolate: IIIB ; setting: 50% human serum ; cells: MT-4 ; method: p24 / ELISA ; value: >1 µM
CC(C)(C)NC(=O)[C@@H]1C[C@@H]2CCCC[C@@H]2CN1C[C@@H](O)[C@H](Cc1ccccc1)NC(=O)[C@H](CC(N)=O)NC(=O)c1ccc2ccccc2n1 ; mutations: PR-L10V T12I G16E R57K I64V ; strain or isolate: Isolate A PR L10V/T12I/G16E/R57K/I64V ; cells: PBMC ; method: p24 ; value: 0.025 µM
NC(=O)c1[nH]c2ccc(Cl)cc2c1Sc1ccccc1 ; strain or isolate: IIIB ; cells: MT-4 ; method: p24 / ELISA ; value: 0.2 µM
Cc1cc(C)c(-n2nnnc2SCC(=O)Nc2ccccc2Br)c(C)c1 ; cells: MT-4 ; method: p24 ; value: <10 µM
CC(C)=CCN1Cc2cc(Cl)cc3[nH]c(=S)n(c23)C[C@@H]1C ; mutations: RT-M41L T215Y K101E ; cells: MT-4 ; value: >3 µM
O=C(CSc1nnnn1-c1ccccc1-c1ccccc1)Nc1ccccc1[N+](=O)[O-] ; cells: MT-4 ; method: p24 ; value: <10 µM
O=C1Nc2ccc(Cl)cc2[C@@](C#Cc2ccccn2)(C2CC2)N1 ; strain or isolate: IIIB ; cells: MT-4 ; value: 0.025 µM
Cc1cc(SC2=C(O)C[C@@](CCc3ccc(O)cc3)(c3ccccc3)OC2=O)c(C(C)(C)C)cc1CO ; cells: CEM ; method: cytopathic effect / XTT ; value: 7.5 µM
CCNC(=O)N1CCN(C)C(c2nc(C(=O)NCc3ccc(F)cc3)c(O)c(=O)n2C)C1 ; strain or isolate: IIIB ; setting: 50% human serum ; cells: MT-4 ; method: p24 / ELISA ; value: >1 µM
COC(=O)c1ccccc1NC(=O)CSc1nnnn1-c1cccc2ccccc12 ; cells: MT-4 ; method: p24 ; value: <10 µM
O=S(Cc1[nH]c2ccccc2c1S(=O)c1ccccc1)c1ccccc1 ; strain or isolate: IIIB ; cells: MT-4 ; method: p24 / ELISA ; value: >3 µM
Cc1cc(C)c(-n2nnnc2SCC(=O)Nc2ccc(S(N)(=O)=O)cc2)c(C)c1 ; cells: MT-4 ; method: p24 ; value: <10 µM
CC(C)(C)NC(=O)[C@@H]1CN(C(C)(C)c2cc3cnccc3o2)CCN1C[C@@H](O)C[C@@H](Cc1ccccc1)C(=O)N[C@H]1c2ccccc2C[C@H]1O ; mutations: PR-L10I S37N M46I I54V Q58E L63P I64V V77I V82F L90M I93L ; strain or isolate: K-60C (PR L10I S37N M46I I54V Q58E L63P I64V V77I V82F L90M I93L) ; value: >1 µM
C[C@H]1C[C@@H](c2nc(C(=O)NCc3ccc(F)cc3)c(O)c(=O)n2C)N(C)C1 ; strain or isolate: IIIB ; setting: 10% FBS ; cells: MT-4 ; method: p24 / ELISA ; value: >1 µM
O=C1N(Cc2ccc(CO)cc2)[C@H](Cc2ccccc2)[C@H](O)[C@@H](O)[C@@H](Cc2ccccc2)N1Cc1ccc(CO)cc1 ; strain or isolate: NL4-3 ; cells: MT-4 ; method: p24 ; value: 0.2 µM
CN(C)C(=O)C(=O)N(C)C1CCn2c1nc(C(=O)NCc1ccc(F)cc1)c(O)c2=O ; strain or isolate: IIIB ; setting: 10% FBS ; cells: MT-4 ; method: p24 / ELISA ; value: >1 µM
N#Cc1ccccc1C#CC1(C2CC2)NC(=O)Nc2ccc(Cl)cc21 ; strain or isolate: IIIB ; cells: MT-4 ; value: 0.012 µM
CN(Cc1ccccc1)C(=O)c1nc(C2COCCN2C)n(C)c(=O)c1O ; strain or isolate: IIIB ; setting: 10% FBS ; cells: MT-4 ; method: p24 / ELISA ; value: >8 µM
COc1ccc(NC(=O)CSc2nnnn2-c2c(C)cc(C)cc2C)c([N+](=O)[O-])c1 ; cells: MT-4 ; method: p24 ; value: <10 µM
Cn1c(C2COCCN2C(=O)OC(C)(C)C)nc(C(=O)NCc2ccc(F)cc2)c(O)c1=O ; strain or isolate: IIIB ; setting: 50% human serum ; cells: MT-4 ; method: p24 / ELISA ; value: >1 µM
Cc1cc(Br)cc(C)c1-n1nnnc1SCC(=O)Nc1ccccc1Cl ; cells: MT-4 ; method: p24 ; value: <10 µM
CN1CCOCC1c1nc(C(=O)NCCc2ccccc2)c(O)c(=O)n1C ; strain or isolate: IIIB ; setting: 50% human serum ; cells: MT-4 ; method: p24 / ELISA ; value: >8 µM
Cc1cc(C)c(-n2nnnc2SCC(=O)Nc2ccc([N+](=O)[O-])cc2C)c(C)c1 ; cells: MT-4 ; method: p24 ; value: <10 µM
CN(C(=O)Cn1cccn1)C1CCCn2c1nc(C(=O)NCc1ccc(F)cc1)c(O)c2=O ; strain or isolate: IIIB ; setting: 50% human serum ; cells: MT-4 ; method: p24 / ELISA ; value: >1 µM

Repeating the final 2 entries:

{"structure": "Cc1cc(C)c(-n2nnnc2SCC(=O)Nc2ccc([N+](=O)[O-])cc2C)c(C)c1", "cells": "MT-4", "method": "p24", "value": "<10 µM"}
{"structure": "CN(C(=O)Cn1cccn1)C1CCCn2c1nc(C(=O)NCc1ccc(F)cc1)c(O)c2=O", "strain or isolate": "IIIB", "setting": "50% human serum", "cells": "MT-4", "method": "p24 / ELISA", "value": ">1 µM"}